Results deposited as PubChem BioAssay AID504761 (Drosophila RNAi Screening Center, 2011)

Assay: 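Insect host genes that dengue virus relies on to spread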 (primary screen)
Cells: D.Mel-2 cells from Drosophila
Knock-down reagent: long dsRNA against Drosophila genes
Treatment: infection with dengue virus type 2; dose and infection time not stated
Measured: 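Cells stained for dengue envelope protein and imaged; percent of infected cells per well on duplicate plates, ranked by infection, with stained nuclei counted for cell number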
Scale: infection score: higher = more virus-infected cells
Hit rule: 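Very low infection ranking in both replicate wells (chance probability at most 0.065), then a retest showing infection dropped 1.5-fold or more at p below 0.05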
Meaning of the calls: active = confirmed: knock-down lowers infection; inactive = not picked or not confirmed
The screen tested about 22,000 reagents; below is a random part of those with a known target gene and a result. Of all reagents, 116 (0.52%) were called active. 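Calls depend on retest data that are not deposited; infection was ranked per plate without normalising between plates; the unit of the infection score is not given.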 Further read-outs or replicates are left out here. Not stated in the record: the amount of reagent, the time to read-out.

With knock-down of IntS3 [DRSC21215], the record shows infection score, replicate 1 = 4.65; inactive.
Against Snr1 [DRSC12369] the deposit lists infection score, replicate 1 = 2.18; inactive.
After knock-down of Ddx56 [DRSC20567], the record shows infection score, replicate 1 = 8.65; inactive.
Silencing of Ddx56 [DRSC26165] gave: infection score, replicate 1 = 1.85; inactive.
Depletion of Sp212 [DRSC22930] gave: infection score, replicate 1 = 2.9; inactive.
Sp212 [DRSC28291] showed infection score, replicate 1 = 14.4; inactive.
With knock-down of fs(2)ltoPP43 [DRSC02067], the screen gave infection score, replicate 1 = 12.1; inactive.
fs(2)ltoPP43 [DRSC24493] scored infection score, replicate 1 = 3.32; inactive.
Against Ktl [DRSC14270] the deposit lists infection score, replicate 1 = 5.69; inactive.
With knock-down of CG5455 [DRSC15805] the results were infection score, replicate 1 = 8.78; inactive.
Depletion of CG5455 [DRSC27389] resulted in: infection score, replicate 1 = 11.8; inactive.
Depletion of Polr3B [DRSC07536] resulted in: infection score, replicate 1 = 3.77; inactive.

A portion from the list above, as a working copy:
Snr1 [DRSC12369] | infection score, replicate 1 = 2.18; call = inactive
Ddx56 [DRSC20567] | infection score, replicate 1 = 8.65; call = inactive
